Results of unrelated studies side by side (data: NIAID ChemDB).

All rows: target-level tests; species: HIV-1; protein: Reverse transcriptase

ICn: concentration for n% inhibition.

compound,method,strain or isolate,read-out,mutations,result
O=C(OC1[C@H](OC(=O)c2cc(O)c(O)c(O)c2)CC(OC(=O)c2cc(O)c(O)c(O)c2)(C(=O)O)C[C@H]1OC(=O)c1cc(O)c(O)c(O)c1)c1cc(O)c(O)c(O)c1,nucleotide incorporation,,IC50,,>10 µM
CCN1c2ncc(CCOc3cccc4c3COC(=O)N4)cc2C(=O)Nc2c(C)ccnc21,nucleotide incorporation / radiometric,IIIB,IC50,,<0.05 µM
COc1ccc(C(=O)/C=C/c2cc3ccc(Cl)c(C)c3nc2Cl)c(Br)c1,RT activity,,IC50,,0.15 µg/mL
O=C(O[C@@H]1[C@@H](c2c(O)cc(O)c3c2O[C@H](c2ccc(O)c(O)c2)[C@H](OC(=O)c2cc(O)c(O)c(O)c2)C3)c2c(O)cc(O)cc2O[C@@H]1c1ccc(O)c(O)c1)c1cc(O)c(O)c(O)c1,nucleotide incorporation,,IC50,,>20 µg/mL
c1cnc2c(c1)CN(c1nn3c(C4CC4)nnc3c3ccccc13)CC2,RT activity / fluorescence,98US_MSC5016,IC50,,2.64 µM
CCN1c2ncc(CCOc3ccc(-c4cc(C(=O)O)c(C)o4)cc3)cc2C(=O)N(C)c2cccnc21,nucleotide incorporation / radiometric,IIIB,IC50,,<0.05 µM
COc1ccc(C(=O)/C=C/c2cc3ccc(Cl)c(C)c3nc2Cl)cc1OC,RT activity,,IC50,,0.15 µg/mL
N#Cc1cc(Cl)cc(Oc2cc(OCc3[nH]nc4nc(N5CCC5)ccc34)ccc2Cl)c1,nucleotide incorporation / radiometric,,IC50,,<20 µM
CCCc1c(Sc2ccccc2)n(COCCO)c(=O)[nH]c1=O,RT activity,,IC50,,11 µM
Cc1nnc2n1CCN(c1nn3c(C4CC4)nnc3c3ccccc13)C2,RT activity / fluorescence,KER2008,IC50,,>100 µM
O=c1cc(Sc2ccccc2)n(COCCO)c(=O)[nH]1,RT activity,,IC50,,>500 µM
Cc1cc(-c2ccc[n+]([O-])c2)ccc1OCCc1cnc2c(c1)C(=O)Nc1c(C)ccnc1N2C1CC1,nucleotide incorporation / radiometric,IIIB,IC50,RT-K103N Y181C,0.05–0.1 µM
CCN1c2ncc(CCOc3ccc4[nH]c(=O)[nH]c4c3)cc2C(=O)N(C)c2cccnc21,nucleotide incorporation / radiometric,IIIB,IC50,,0.05–0.1 µM
CS(=O)(=O)c1ccc2c(c1)CCN2C(=O)COc1ccc(Cl)c(Oc2cc(Cl)cc(C#N)c2)c1,nucleotide incorporation / radiometric,,IC50,,<20 µM
CC(C)=CCC/C(C)=C/CC/C(C)=C/CC/C(C)=C/CC/C(C)=C/CC/C(C)=C/Cc1cc(O)ccc1O,nucleotide incorporation,,IC50,,4.5 µM
Nc1cc2c(cc1F)CN(c1nn3c(C4CC4)nnc3c3ccccc13)CC2,RT activity / fluorescence,IIIB,IC90,,3.1 µM
O=C(O)C[C@H]1C(=O)O[C@H]2[C@H](OC(=O)c3cc(O)c(O)c(O)c3)[C@@H](OC(=O)c3cc(O)c(O)c4c3[C@H]1[C@H](O)C(=O)O4)[C@H](OC(=O)c1cc(O)c(O)c(O)c1)O[C@@H]2COC(=O)c1cc(O)c(O)c(O)c1,nucleotide incorporation,,IC50,,<20 µg/mL
CCN1C(=O)c2cccnc2N(C)c2nc(-c3ccc[nH]3)ccc21,nucleotide incorporation / radiometric,,IC50,RT-Y188L,>1 µM
CCN1c2ncc(CCOc3ccc(-c4ccc[n+]([O-])c4)cc3C)cc2C(=O)Nc2c(C)ccnc21,nucleotide incorporation / radiometric,IIIB,IC50,RT-K103N Y181C,<0.05 µM
CC1(C)Oc2ccc3ccc(=O)oc3c2[C@H](OC(=O)C23CCC(C)(C(=O)O2)C3(C)C)[C@@H]1OC(=O)C12CCC(C)(C(=O)O1)C2(C)C,,IIIB,IC50,,>100 µg/mL
O=C1O[C@@H]2[C@@H](OC(=O)c3cc(O)c(O)c(O)c3-c3c1cc(O)c(O)c3O)[C@@H](O)O[C@@H]1COC(=O)c3cc(O)c(O)c(O)c3-c3c(O)c(O)c4oc(=O)c5c(c(O)c(O)c6oc(=O)c3c4c65)-c3c(cc(O)c(O)c3O)C(=O)O[C@@H]21,nucleotide incorporation,,IC50,,<20 µg/mL
CCN1c2ncccc2C(=O)N(C)c2ccc(-c3c[nH]c(C#N)c3)nc21,nucleotide incorporation / radiometric,,IC50,RT-Y181C,<1 µM
FC(F)(F)c1cccc2c1CCN(c1nn3c(C4CC4)nnc3c3ccccc13)C2,RT activity / fluorescence,IIIB,IC50,,30.6 µM
COCCN(C)c1ccc2c(COc3ccc(Cl)c(Oc4cc(Cl)cc(C#N)c4)c3)[nH]nc2n1,nucleotide incorporation / radiometric,,IC50,,<20 µM
CCN1C(=O)c2cc(CCOc3cccc4c3CNC(=O)N4)cnc2N(CC)c2ncccc21,nucleotide incorporation / radiometric,IIIB,IC50,,<0.05 µM
CCN1c2ncc(CCOc3ccc(-c4cc[n+]([O-])cc4)cc3C)cc2C(=O)N(C)c2cccnc21,nucleotide incorporation / radiometric,IIIB,IC50,RT-K103N Y181C,<0.05 µM
CCN1c2ncc(CCOc3cccc4c3CNC4=O)cc2C(=O)N(C)c2cccnc21,nucleotide incorporation / radiometric,IIIB,IC50,,<0.05 µM
CN1C(=O)c2cccnc2N(C)c2nc(-c3ccc[nH]3)ccc21,nucleotide incorporation / radiometric,,IC50,RT-Y188L,>1 µM
N#Cc1cc(Cl)cc(Oc2cc(Cl)cc(OCC(=O)NC3CCS(=O)(=O)C3)c2)c1,nucleotide incorporation / radiometric,,IC50,,<20 µM
Cc1c(Cl)ccc2cc(/C=C/c3cccc4c3OCCO4)c(Cl)nc12,RT activity,,IC50,,0.28 µg/mL
CCc1c(Sc2ccccc2)n(COCc2ccccc2)c(=O)[nH]c1=O,RT activity,,IC50,,0.16 µM
O=C(OC[C@H]1O[C@@H](OC(=O)c2cc(O)c(O)c(O)c2)[C@H](OC(=O)c2cc(O)c(O)c(O)c2)[C@@H](O)[C@@H]1O)c1cc(O)c(O)c(O)c1,nucleotide incorporation,,IC50,,>20 µg/mL
CCN1c2ncc(CCOc3ccc(-c4cscn4)cc3)cc2C(=O)N(C)c2cccnc21,nucleotide incorporation / radiometric,IIIB,IC50,RT-K103N Y181C,>0.1 µM
CCN1c2ncc(CCOc3cccc4c3CNC(=O)N4)cc2C(=O)Nc2c(C)ccnc21,nucleotide incorporation / radiometric,IIIB,IC50,,<0.05 µM
CCOC(=O)C(=O)CC(=O)/C=C/c1cccn1Cc1ccccc1Cl,RNase H / radiometric,,IC50,N474A,90 µM
CCN1c2ncccc2C(=O)N(C)c2ccc(-c3cc[nH]c3)nc21,nucleotide incorporation / radiometric,,IC50,RT-Y181C,<1 µM
Cc1ccnc2c1NC(=O)c1cc(CCOc3cccc4c3CNC(=O)N4)cnc1N2C1CC1,nucleotide incorporation / radiometric,IIIB,IC50,,<0.05 µM
CN(C)S(=O)(=O)c1ccc2c(c1)CCN2C(=O)COc1cc(Cl)cc(Oc2cc(Cl)cc(C#N)c2)c1,nucleotide incorporation / radiometric,,IC50,,<20 µM
CCN1c2ncc(CCOc3ccc(-c4ccc(CC(=O)O)cc4)cc3CO)cc2C(=O)N(C)c2cccnc21,nucleotide incorporation / radiometric,IIIB,IC50,,<0.05 µM
O=C(O)c1cc(O)c2c(c1)[C@@H]([C@H]1c3cc(C(=O)O)cc(O)c3C(=O)c3c(O[C@@H]4O[C@H](CO)[C@@H](O)[C@H](O)[C@H]4O)cccc31)c1cccc(O[C@@H]3O[C@H](CO)[C@@H](O)[C@H](O)[C@H]3O)c1C2=O,RNase H / radiometric,,IC50,,2.1 µM
CN1C(=O)c2cccnc2N(C2CC2)c2nc(-c3cc[nH]c3)ccc21,nucleotide incorporation / radiometric,,IC50,RT-Y188L,<1 µM
Nc1ncnc2c1ncn2[C@H]1CC[C@@H](COP(=O)(O)OP(=O)(O)OP(=O)(O)O)O1,nucleotide incorporation,,IC50,RT-K65R,>100 µM
CCN1c2ncc(CCOc3ccc(-c4ccc(C)[n+]([O-])c4)cc3C)cc2C(=O)N(C)c2cccnc21,nucleotide incorporation / radiometric,IIIB,IC50,,<0.05 µM
CCN1c2ncccc2C(=O)N(C)c2ccc(-c3ccn[nH]3)nc21,nucleotide incorporation / radiometric,WT,IC50,,<1 µM
CCN1c2ncc(CCOc3ccc(-c4cnc[nH]4)cc3C)cc2C(=O)N(C)c2cccnc21,nucleotide incorporation / radiometric,IIIB,IC50,RT-K103N Y181C,<0.05 µM
CS(=O)(=O)c1ccc(NC(=O)COc2ccc(Cl)c(Oc3cc(Cl)cc(C#N)c3)c2)c(Cl)c1,nucleotide incorporation / radiometric,,IC50,,<20 µM
CCN1c2ncccc2C(=O)N(C)c2ccc(-c3cn[nH]c3C)nc21,nucleotide incorporation / radiometric,,IC50,RT-Y181C,<1 µM
Cc1c(Cl)ccc2cc(/C=C/c3sccc3Br)c(Cl)nc12,RT activity,,IC50,,0.22 µg/mL
Cc1ccc(-c2nnc(COc3ccc(Cl)c(Oc4cc(Cl)cc(C#N)c4)c3)o2)cc1,nucleotide incorporation / radiometric,,IC50,,<20 µM
O=C1OCC2OC(=O)c3cc(O)c(O)c(O)c3-c3c(O)c(O)c(O)c4c3C(=O)OC(C2OC(=O)c2cc(O)c(O)c(O)c2-c2c1cc(O)c(O)c2O)C1OC(=O)c2c-4c(O)c(O)c(O)c2[C@@H]1O,nucleotide incorporation,,IC50,,>20 µg/mL
O=C(O)c1cc(O)c2c(c1)C(=O)c1cccc(O)c1C2=O,RNase H / radiometric,,IC50,,60 µM
CC(=O)O[C@@H]1[C@H](OC(=O)CC(C)C)c2c(ccc3ccc(=O)oc23)OC1(C)C,,IIIB,IC50,,>100 µg/mL
Nc1nc2c(ncn2[C@H]2CC[C@@H](COP(=O)(O)OP(=O)(O)OP(=O)(O)O)O2)c(=O)[nH]1,,,Ki,RT-K65R,0.015 µM

Again, the opening 6 rows:

{"compound": "O=C(OC1[C@H](OC(=O)c2cc(O)c(O)c(O)c2)CC(OC(=O)c2cc(O)c(O)c(O)c2)(C(=O)O)C[C@H]1OC(=O)c1cc(O)c(O)c(O)c1)c1cc(O)c(O)c(O)c1", "method": "nucleotide incorporation", "read-out": "IC50", "result": ">10 µM"}
{"compound": "CCN1c2ncc(CCOc3cccc4c3COC(=O)N4)cc2C(=O)Nc2c(C)ccnc21", "method": "nucleotide incorporation / radiometric", "strain or isolate": "IIIB", "read-out": "IC50", "result": "<0.05 µM"}
{"compound": "COc1ccc(C(=O)/C=C/c2cc3ccc(Cl)c(C)c3nc2Cl)c(Br)c1", "method": "RT activity", "read-out": "IC50", "result": "0.15 µg/mL"}
{"compound": "O=C(O[C@@H]1[C@@H](c2c(O)cc(O)c3c2O[C@H](c2ccc(O)c(O)c2)[C@H](OC(=O)c2cc(O)c(O)c(O)c2)C3)c2c(O)cc(O)cc2O[C@@H]1c1ccc(O)c(O)c1)c1cc(O)c(O)c(O)c1", "method": "nucleotide incorporation", "read-out": "IC50", "result": ">20 µg/mL"}
{"compound": "c1cnc2c(c1)CN(c1nn3c(C4CC4)nnc3c3ccccc13)CC2", "method": "RT activity / fluorescence", "strain or isolate": "98US_MSC5016", "read-out": "IC50", "result": "2.64 µM"}
{"compound": "CCN1c2ncc(CCOc3ccc(-c4cc(C(=O)O)c(C)o4)cc3)cc2C(=O)N(C)c2cccnc21", "method": "nucleotide incorporation / radiometric", "strain or isolate": "IIIB", "read-out": "IC50", "result": "<0.05 µM"}

Two numbers with a dash give a range or band. Conditions beyond the fields shown may differ between rows. Blank or dashed fields: not listed here.